{"source": "the supplement of paper PMC9931576", "experiment_in_all_cases": "pseudovirus neutralization IC50; higher = weaker neutralization", "key": {"[1]": {"biological_target": "SARS-CoV-2 Omicron BA.1 spike pseudovirus", "method": "(§1)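 Single-round VSV luciferase pseudovirus mixed with antibody dilutions for 1 h and put on Huh-7 cells for about a day; IC50 from the dose curve.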"}, "[2]": {"biological_target": "SARS-CoV-2 Omicron BA.2 spike pseudovirus", "method": "as §1"}, "[3]": {"biological_target": "SARS-CoV-2 Omicron BA.2.75 spike pseudovirus", "method": "as §1"}, "[4]": {"biological_target": "SARS-CoV-2 Omicron BA.5 spike pseudovirus", "method": "as §1"}, "[5]": {"biological_target": "SARS-CoV-2 Omicron BQ.1.1 spike pseudovirus", "method": "as §1"}, "[6]": {"biological_target": "SARS-CoV-2 Omicron XBB spike pseudovirus", "method": "as §1"}, "[7]": {"biological_target": "SARS-CoV-2 early D614G spike pseudovirus", "method": "as §1"}}, "note": "Human monoclonal antibodies against the spike receptor-binding domain (heavy:light variable regions). IC50 against pseudoviruses bearing the spike of naturally observed variants; lower = stronger; >10 µg/ml means not reached at the top dose. No active / inactive call. The stated detection limit is 0.0005 µg/ml; values near or below 0.001 µg/ml lie at the floor of the assay."}
{"binder": "BD56-059 (protein) chain 1: QVQLVQSGAEVKKPGSSVKVSCKASGGTFNNYAINWVRQAPGQGLEWMGRIIPMFEMAHYAQNFQGRVTMTADKSTSTAYMELSSLRSEDTAVFYCATSKFYYDGGEAYYFANWGQGTLVAVSS chain 2: EIVLTQSPGTLSLSPGERATLSCRASQNVTSRYLAWYQQKPGQAPRLLIYGASTRATGIPDRFSGSGSGTDFTLTIRRLDPEDFAVYYCQQYHTSRTFGQGTKVEIK", "values": [{"measurement": "pseudovirus neutralization IC50", "setting": "[1]", "value": 0.397, "unit": "µg/mL"}, {"measurement": "pseudovirus neutralization IC50", "setting": "[2]", "value": 0.385, "unit": "µg/mL"}, {"measurement": "pseudovirus neutralization IC50", "setting": "[3]", "value": 0.0493, "unit": "µg/mL"}, {"measurement": "pseudovirus neutralization IC50", "setting": "[4]", "value": "> 10", "unit": "µg/mL"}, {"measurement": "pseudovirus neutralization IC50", "setting": "[5]", "value": "> 10", "unit": "µg/mL"}, {"measurement": "pseudovirus neutralization IC50", "setting": "[6]", "value": "> 10", "unit": "µg/mL"}, {"measurement": "pseudovirus neutralization IC50", "setting": "[7]", "value": 0.00836, "unit": "µg/mL"}]}
{"binder": "BD56-065 (protein) chain 1: DVQLVQSGAEVKKPGESLKISCRGSGYSFARYWIGWVRQMPGKGLEWMGIIYPGNSDARYSPSFQGQVTISADKSINTAYLQWSSLKASDTAMYYCTRHATYCSTTTCYAEENYYYDMDVWGQGTTVTVSS chain 2: QSALTQPASVSGSPGQSITISCTGTSSDVGGYHYVSWYQQHPGKAPKLMIYEVSNRPSGVSNRFSGSKSGNTASLTISGLQAEDEADYYCTSYTDSSTSYVFGSGTKVTVL", "values": [{"measurement": "pseudovirus neutralization IC50", "setting": "[1]", "value": 3.58, "unit": "µg/mL"}, {"measurement": "pseudovirus neutralization IC50", "setting": "[2]", "value": 2.49, "unit": "µg/mL"}, {"measurement": "pseudovirus neutralization IC50", "setting": "[3]", "value": 2.21, "unit": "µg/mL"}, {"measurement": "pseudovirus neutralization IC50", "setting": "[4]", "value": "> 10", "unit": "µg/mL"}, {"measurement": "pseudovirus neutralization IC50", "setting": "[5]", "value": "> 10", "unit": "µg/mL"}, {"measurement": "pseudovirus neutralization IC50", "setting": "[6]", "value": "> 10", "unit": "µg/mL"}, {"measurement": "pseudovirus neutralization IC50", "setting": "[7]", "value": 0.0589, "unit": "µg/mL"}]}
{"binder": "BD56-069 (protein) chain 1: EVQLVESGGGLVQPGRSLRLSCAASGFTFDDYAMHWVRQAPGKGLEWVSGISWNGGIIGFADSVKGRFVISRDNAENSLYLHMGSLRAEDTALYYCTKDIQFHGESAFDYWGQGTQVTVSS chain 2: SYVLTQPPSVSVAPGQTARITCGGNNIGSKSVYWYQQKPGQAPVLVVYDDTDRPSGIPERLSGSNSGNTATLTISRVEAGDEADYFCQVWDSNSDHYVFGTGTKVTVL", "values": [{"measurement": "pseudovirus neutralization IC50", "setting": "[1]", "value": 0.056, "unit": "µg/mL"}, {"measurement": "pseudovirus neutralization IC50", "setting": "[2]", "value": 0.044, "unit": "µg/mL"}, {"measurement": "pseudovirus neutralization IC50", "setting": "[3]", "value": 0.0578, "unit": "µg/mL"}, {"measurement": "pseudovirus neutralization IC50", "setting": "[4]", "value": 0.884, "unit": "µg/mL"}, {"measurement": "pseudovirus neutralization IC50", "setting": "[5]", "value": 0.95, "unit": "µg/mL"}, {"measurement": "pseudovirus neutralization IC50", "setting": "[6]", "value": "> 10", "unit": "µg/mL"}, {"measurement": "pseudovirus neutralization IC50", "setting": "[7]", "value": 0.0258, "unit": "µg/mL"}]}
{"binder": "BD56-071 (protein) chain 1: QVQLVQSGSELKKPGASVKVSCKASGFTFTNYAINWVRQAPGQGLEWMGWINTNIGDPTYARGFTGRFVFSLDTSVSTAYLQISSLKAEDTAVYYCARLGRFSTSWLDDAFDIWGQGTLVTVSS chain 2: DIVMTQSPDSLAVSLGERATINCKSSHSVLFSPDNKNFLAWYQQKPGQPPKLLIYWASARESGVPDRFSGSGSGTDFTLTISSLQAEDVAVYYCQQYYSTPLTFGGGTKVEIK", "values": [{"measurement": "pseudovirus neutralization IC50", "setting": "[1]", "value": 0.00839, "unit": "µg/mL"}, {"measurement": "pseudovirus neutralization IC50", "setting": "[2]", "value": 0.00671, "unit": "µg/mL"}, {"measurement": "pseudovirus neutralization IC50", "setting": "[3]", "value": 0.0177, "unit": "µg/mL"}, {"measurement": "pseudovirus neutralization IC50", "setting": "[4]", "value": 0.00734, "unit": "µg/mL"}, {"measurement": "pseudovirus neutralization IC50", "setting": "[5]", "value": 2.25, "unit": "µg/mL"}, {"measurement": "pseudovirus neutralization IC50", "setting": "[6]", "value": 2.09, "unit": "µg/mL"}, {"measurement": "pseudovirus neutralization IC50", "setting": "[7]", "value": 0.00526, "unit": "µg/mL"}]}
{"binder": "BD56-075 (protein) chain 1: EVQLLESGGGLVQPGGSLRLSCSASRFTFSTYAMNWVRQAPGKGLEWVSAISASGDFKYYADSVKGRFTISRDNSKNTLSLQMKSLRADDTAVYYCAKEGGFSDYYDVFDIWGQGTVVTVSS chain 2: DIQVTQSPSSLSASVGDRVTITCRASQSIGSYLNWYQQKPGKAPKLLIYATSSLPSGVPSRFSGSGSGTDFTLTISSLQPEDFASYYCQQSYNTPPWTFGQGTKVEIK", "values": [{"measurement": "pseudovirus neutralization IC50", "setting": "[1]", "value": "> 10", "unit": "µg/mL"}, {"measurement": "pseudovirus neutralization IC50", "setting": "[2]", "value": 8.46, "unit": "µg/mL"}, {"measurement": "pseudovirus neutralization IC50", "setting": "[3]", "value": "> 10", "unit": "µg/mL"}, {"measurement": "pseudovirus neutralization IC50", "setting": "[4]", "value": 8.67, "unit": "µg/mL"}, {"measurement": "pseudovirus neutralization IC50", "setting": "[5]", "value": "> 10", "unit": "µg/mL"}, {"measurement": "pseudovirus neutralization IC50", "setting": "[6]", "value": "> 10", "unit": "µg/mL"}, {"measurement": "pseudovirus neutralization IC50", "setting": "[7]", "value": 2.79, "unit": "µg/mL"}]}
{"binder": "BD56-085 (protein) chain 1: QVQLQQSGPGLVKPSQTLSLTCAISGDSVSSNSVAWNWIRQSPSRGLEWLGRTYHRAKWYNDYAISVKRRITINPDTSKNQFSLQLYSVTPEDTAVYYCARVGAAADPDYYFDSWGQGTLVTVSS chain 2: AIQLTQSPSSLSASVGDKVTITCRASQGISRALAWYQQKPGKPPKLLIFDASSLGGGVPSRFSGSGSGTDFTLTISSLQPEDFATYYCQQFNNYPLTFGQGTRLDMK", "values": [{"measurement": "pseudovirus neutralization IC50", "setting": "[1]", "value": 0.0632, "unit": "µg/mL"}, {"measurement": "pseudovirus neutralization IC50", "setting": "[2]", "value": 0.0772, "unit": "µg/mL"}, {"measurement": "pseudovirus neutralization IC50", "setting": "[3]", "value": 0.0361, "unit": "µg/mL"}, {"measurement": "pseudovirus neutralization IC50", "setting": "[4]", "value": 0.0579, "unit": "µg/mL"}, {"measurement": "pseudovirus neutralization IC50", "setting": "[5]", "value": "> 10", "unit": "µg/mL"}, {"measurement": "pseudovirus neutralization IC50", "setting": "[6]", "value": "> 10", "unit": "µg/mL"}, {"measurement": "pseudovirus neutralization IC50", "setting": "[7]", "value": 0.0222, "unit": "µg/mL"}]}
